Anti-infective test results gathered from many reports (values: NIAID ChemDB through PubChem).

All rows: whole-cell or culture tests; agent: Human cytomegalovirus

ECn is the concentration giving n% inhibition of infection, replication or growth. Rows are shuffled and stem from different studies.

{"SMILES": "CCCCCCCCCCCCCCCCCCOC[C@H](COP(=O)(O)CO[C@H](CO)Cn1ccc(N)nc1=O)OCc1ccccc1", "strain": "Coffman", "method": "plaque count", "read-out": "EC50", "cell line": "HFF", "value": "0.02 µM"}
{"SMILES": "O=C1c2ccccc2[C@@]2(O)C3C4C[C@H]5CC(C[C@H]3C5)C4N12", "strain": "AD169", "method": "plaque count", "read-out": "EC50", "cell line": "HEL", "value": "13 µg/mL"}
{"SMILES": "Nc1nc2c(ncn2COC(CO)CO)c(=O)[nH]1", "strain": "1117R (drug-resistant)", "method": "plaque count", "read-out": "EC50", "cell line": "HFF", "value": "42 µM"}
{"SMILES": "Nc1nc2c(ncn2COC(CO)CO)c(=O)[nH]1", "strain": "Towne (ganciclovir- foscarnet-susceptible)", "method": "plaque count", "read-out": "EC50", "cell line": "MRC-5", "value": "4.94 µM"}
{"SMILES": "CCCCCCCCCCCCCCCCOP(=O)(O)CO[C@H](CO)Cn1ccc(N)nc1=O", "strain": "C8914-6", "method": "plaque count", "read-out": "EC50", "cell line": "HFF", "value": "0.1 µM"}
{"SMILES": "Nc1nc2c(ncn2COC(CO)CO)c(=O)[nH]1", "strain": "AD169", "method": "virus yield", "read-out": "EC50", "cell line": "HFF", "value": "<1.2 µM"}
{"SMILES": "Nc1ccn(C[C@@H](CO)OCP(=O)(O)O)c(=O)n1", "strain": "D-10 C4 (BDCRB-resistant)", "method": "plaque count", "read-out": "EC50", "cell line": "HFF", "value": "0.11 µg/mL"}
{"SMILES": "O=C(O)P(=O)(O)O", "strain": "Towne (ganciclovir- foscarnet-susceptible)", "method": "plaque count", "read-out": "EC75", "cell line": "MRC-5", "value": "191 µM"}
{"SMILES": "O=C(NCc1ccc(Cl)cc1)c1c[nH]c2c(F)cccc2c1=O", "strain": "GDGrP53", "method": "plaque count", "read-out": "EC90", "value": "26 µM"}
{"SMILES": "O=C1c2ccccc2C(=O)N1C12CC3CC(CC(C3)C1)C2", "strain": "DAVIS", "method": "plaque count", "read-out": "EC50", "cell line": "HEL", "value": ">100 µg/mL"}
{"SMILES": "NC(=O)c1c(Cl)c(-c2cccnc2)n2c1CCCC2", "strain": "Cidofovir-resistant", "method": "plaque count", "read-out": "EC50", "cell line": "HEL", "value": "0.13 µM"}
{"SMILES": "OC[C@H]1O[C@@H](n2c(Br)nc3cc(Cl)c(Cl)cc32)[C@H](O)[C@@H]1O", "strain": "8805REC1 (MET460VAL)", "method": "hybridisation", "read-out": "EC50", "cell line": "MRC-5", "value": "2 µM"}
{"SMILES": "CCCCCCCC/C=C\\CCCCCCCOCCCOP(=O)(O)CO[C@H](CO)Cn1ccc(N)nc1=O", "strain": "VR4955 (foscarnet-resistant)", "method": "plaque count", "read-out": "EC50", "cell line": "HFF", "value": "0.002 µM"}
{"SMILES": "Nc1nc2c(ncn2COC(CO)CO)c(=O)[nH]1", "strain": "D10 (BDCRB- and maribavir-resistant)", "method": "plaque count", "read-out": "EC50", "cell line": "HFF", "value": "12.7 µM"}
{"SMILES": "COc1nc(N)nc2c1ncn2C=C1CC1CO", "strain": "AD169", "method": "plaque count", "read-out": "EC50", "cell line": "HFF", "value": "5.3 µM"}
{"SMILES": "CN(C)c1cccc2c(S(=O)(=O)Nc3ccc(NC(=O)C(C)(C)CO)cc3)cccc12", "strain": "AD169", "method": "plaque count", "read-out": "EC50", "value": "0.44 µM"}
{"SMILES": "O[C@@H]1[C@H](O)[C@H](O)CO[C@H]1n1c(Br)nc2cc(Cl)c(Cl)cc21", "strain": "Toledo", "method": "plaque count", "read-out": "EC50", "cell line": "HFF", "value": "5.3 µM"}
{"SMILES": "CCCCCCCCCCCCCCCCCCOCCOP1(=O)CO[C@@H](Cn2ccc(N)nc2=O)CO1", "strain": "C9208/5-4-2", "method": "plaque count", "read-out": "EC50", "cell line": "MRC-5", "value": "0.001 µM"}
{"SMILES": "Nc1nc2c(ncn2C=C2CC2CO)c(=O)[nH]1", "strain": "C8805/37-1-1", "method": "plaque count", "read-out": "EC50", "cell line": "HFF", "value": "48.9 µM"}
{"SMILES": "CC(C)Nc1nc2cc(Cl)c(Cl)cc2n1[C@H]1O[C@@H](CO)[C@H](O)[C@@H]1O", "strain": "C8912", "method": "plaque count", "read-out": "EC50", "cell line": "MRC-5", "value": "0.21 µM"}
{"SMILES": "CC(C)Nc1nc2cc(Cl)c(Cl)cc2n1[C@H]1O[C@@H](CO)[C@H](O)[C@@H]1O", "strain": "2916R (1263W94-resistant)", "method": "virus yield", "read-out": "EC50", "cell line": "HFF", "value": "<0.3 µM"}
{"SMILES": "OC[C@H]1O[C@@H](n2c(Br)nc3cc(Cl)c(Cl)cc32)[C@H](O)[C@@H]1O", "strain": "VR4760R (drug-resistant)", "method": "plaque count", "read-out": "EC50", "cell line": "HFF", "value": "1.7 µM"}
{"SMILES": "O=C(NCc1ccc(Cl)cc1)c1c[nH]c2ccc(C#CCO)cc2c1=O", "strain": "SAL", "method": "plaque count", "read-out": "EC50", "value": "1.1 µM"}
{"SMILES": "C[C@@H]1O[C@@H](n2c(Cl)nc3cc(Cl)c(Cl)cc32)[C@H](O)[C@@H]1O", "strain": "48041 (GCV-susceptible)", "method": "plaque count", "read-out": "EC50", "value": "0.82 µM"}
{"SMILES": "Nc1nc2c(ncn2C[C@@H]2CC[C@@H](P(=O)(O)O)O2)c(=O)[nH]1", "strain": "D16 (ganciclovir-resistant)", "method": "plaque count", "read-out": "EC50", "cell line": "MRC-5", "value": "0.4 µg/mL"}
{"SMILES": "Nc1nc2c(ncn2C=C2CC2CO)c(=O)[nH]1", "strain": "VR4760 (ganciclovir-resistant)", "method": "plaque count", "read-out": "EC90", "value": "4.5 µM"}
{"SMILES": "Nc1nc2c(ncn2COC(CO)CO)c(=O)[nH]1", "strain": "AD169", "method": "plaque count", "read-out": "EC50", "cell line": "HEL", "value": "1.9 µg/mL"}
{"SMILES": "O=C(NCc1ccc(Cl)cc1)c1c[nH]c2ccc(C#CCO)cc2c1=O", "strain": "GDGrP53", "method": "plaque count", "read-out": "EC50", "value": "0.3 µM"}
{"SMILES": "Nc1ccn(C[C@@H](CO)OCP(=O)(O)O)c(=O)n1", "strain": "Towne (ganciclovir- foscarnet-susceptible)", "method": "plaque count", "read-out": "EC50", "cell line": "MRC-5", "value": "0.58 µM"}
{"SMILES": "CCCCCCCC/C=C\\CCCCCCCCOCCOP(=O)(O)CO[C@H](CO)Cn1ccc(N)nc1=O", "strain": "AD169", "method": "plaque count", "read-out": "EC50", "cell line": "HFF", "value": "0.001 µM"}
{"SMILES": "NC12CC3CC(CC(C3)C1C(=O)c1ccccc1C(=O)O)C2", "strain": "AD169", "method": "plaque count", "read-out": "EC50", "cell line": "HEL", "value": ">100 µg/mL"}
{"SMILES": "O[C@@H]1[C@H](O)CO[C@H]1n1c(Cl)nc2cc(Cl)c(Cl)cc21", "strain": "TOWNE", "method": "virus yield", "read-out": "EC50", "cell line": "HFF", "value": "<0.41 µM"}
{"SMILES": "CCCCCCCCCCCCCCCCOCCCOP(=O)(O)CO[C@H](CO)Cn1ccc(N)nc1=O", "strain": "C9209/1-4-4 drug-resistant mutant", "method": "plaque count", "read-out": "EC50", "cell line": "MRC-5", "value": "0.003 µM"}
{"SMILES": "OC[C@H]1O[C@@H](n2c(Br)nc3cc(Cl)c(Cl)cc32)[C@H](O)[C@@H]1O", "strain": "TOWNE", "method": "virus yield", "read-out": "EC50", "cell line": "HFF", "value": "<0.31 µM"}
{"SMILES": "OC[C@H]1O[C@@H](n2c(Cl)nc3cc(Cl)c(Cl)cc32)[C@H](O)[C@@H]1O", "strain": "R56", "method": "virus yield", "read-out": "EC50", "value": "<5.2 µM"}
{"SMILES": "O=C(O)P(=O)(O)O", "strain": "Ganciclovir-resistant", "method": "plaque count", "read-out": "EC50", "cell line": "HEL", "value": "60.6 µM"}
{"SMILES": "Nc1ccn(C[C@H]2COP(=O)(O)CO2)c(=O)n1", "strain": "Towne (ganciclovir- foscarnet-susceptible)", "method": "plaque count", "read-out": "EC75", "cell line": "MRC-5", "value": "1.09 µM"}
{"SMILES": "Nc1ccn(C[C@H]2COP(=O)(O)CO2)c(=O)n1", "strain": "Toledo", "method": "plaque count", "read-out": "EC50", "cell line": "MRC-5", "value": "17.1 µM"}
{"SMILES": "CC/C=C\\Cn1c(=O)sc2c(=O)[nH]c(N)nc21", "strain": "TOWNE", "method": "ELISA", "read-out": "EC50", "value": "1 µM"}
{"SMILES": "Nc1nc(NC2CC2)c2ncn(C=C3CC3CO)c2n1", "strain": "C9208/3-3-1", "method": "plaque count", "read-out": "EC50", "cell line": "HFF", "value": "2.2 µM"}
{"SMILES": "COc1cccc(N2CCN(C3=Nc4c(F)cccc4[C@H](CC(=O)O)N3c3cc(C(F)(F)F)ccc3OC)CC2)c1", "strain": "Clinical isolate 4", "method": "plaque count", "read-out": "EC50", "value": "0.002 µM"}

Repeating the first 2 entries:

SMILES	strain	method	read-out	cell line	value
CCCCCCCCCCCCCCCCCCOC[C@H](COP(=O)(O)CO[C@H](CO)Cn1ccc(N)nc1=O)OCc1ccccc1	Coffman	plaque count	EC50	HFF	0.02 µM
O=C1c2ccccc2[C@@]2(O)C3C4C[C@H]5CC(C[C@H]3C5)C4N12	AD169	plaque count	EC50	HEL	13 µg/mL